Tested on: Vero E6 cells
Conditions: read-out: Vero E6 cytotoxicity CC50; Table 2 quenching compounds

CCCCCCCCCCCCCCCc1cccc(O)c1C(=O)O [anacardic acid]
CC50: 14.1 µM

CCCCCCCc1ccc(CCc2cccc(O)c2C(=O)O)cc1 [MG-149]
CC50: 14.1 µM

From paper PMC7507806 (ACS Pharmacology & Translational Science, 2020)
